Measured values from several laboratories, pooled; numbers as filed in NIAID ChemDB.

Shared fields: cytotoxicity tests; cells: HeLa; read-out: CC50

CCn is the concentration with n% toxicity to the cells. Neighbouring rows are from separate reports.

| structure | result |
|---|---|
| CC(=O)c1c(-c2ccc(Cl)cc2)oc2ccccc2c1=O | 4.57 µM |
| CO[C@@H]1[C@@H](OC(N)=O)[C@@H](O)[C@H](Oc2ccc3c(O)c(NC(=O)c4ccc(O)c(CC=C(C)C)c4)c(=O)oc3c2C)OC1(C)C | 28 µg/mL |
| [N-]=[N+]=N[C@H]1[C@@H](F)[C@H](n2cnc3c(N)ncnc32)O[C@@H]1CO | >400 µg/mL |
| C=CCc1nc(C)n2c(=O)[nH]c(=S)[nH]c12 | 200 µg/mL |
| Nc1ncnc2c1ncn2C1CC(CO)[C@@H](O)[C@H]1O | 10 µg/mL |
| Cc1cn([C@H]2O[C@H](CO)[C@@H](N=[N+]=[N-])[C@H]2F)c(=O)nc1N | >400 µg/mL |
| COc1cc(/C=C/C(=O)Oc2c(-c3ccc(Cl)cc3)oc3ccccc3c2=O)ccc1O | 6.25 µM |
| CON1CCc2c([nH]c3ccccc23)[C@@H]1[C@@H](N)CSC | 40 µg/mL |
| CO[C@H](CO)[C@@H](O)CCn1cc(C)c(=O)[nH]c1=O | >400 µg/mL |
| O=C(/C=C/c1ccc(O)c(O)c1)Oc1c(-c2ccc(Cl)cc2)oc2ccccc2c1=O | 0.91 µM |
| Nc1ncnc2c1ncn2CC[C@H](O)CCO | >400 µg/mL |
| Nc1ncnc2c([C@@H]3O[C@H](CCl)[C@@H](O)[C@H]3O)[nH]nc12 | 400 µg/mL |
| COc1cc(/C=C/C(=O)Oc2c(-c3ccc(Cl)c(Cl)c3)oc3ccccc3c2=O)ccc1OC(C)=O | 0.72 µM |
| O=C1/C(=C/c2ccc(Cl)cc2)COc2ccccc21 | 6.25 µM |
| Nc1ncnc2c1CCN2[C@@H]1O[C@H](CO)C[C@H]1O | 40 µg/mL |
| CO[C@H](CO)[C@@H](O)CCn1cnc2c(=O)[nH]c(N)nc21 | >400 µg/mL |
| Nc1ncnc2c1ncn2[C@@H]1C[C@@H](O)[C@@H](O)[C@H]1O | >400 µg/mL |
| O=C1/C(=C/c2ccc(O)cc2)COc2ccccc21 | 6.25 µM |
| COc1cc(/C=C/C(=O)Oc2c(-c3ccc(Cl)cc3)oc3ccccc3c2=O)ccc1OC(C)=O | 1.36 µM |
| N=c1ccn2c(n1)O[C@H]1[C@H](O)[C@@H](CO)O[C@H]12 | 0.05 µg/mL |
| COc1ccc(Cc2coc3ccccc3c2=O)cc1 | 50 µM |
| Nc1ncnc2c([C@@H]3O[C@H](CSCCC(N)C(=O)O)C[C@H]3O)[nH]nc12 | 100 µg/mL |

The first 2 rows once more:

| structure | result |
|---|---|
| CC(=O)c1c(-c2ccc(Cl)cc2)oc2ccccc2c1=O | 4.57 µM |
| CO[C@@H]1[C@@H](OC(N)=O)[C@@H](O)[C@H](Oc2ccc3c(O)c(NC(=O)c4ccc(O)c(CC=C(C)C)c4)c(=O)oc3c2C)OC1(C)C | 28 µg/mL |